Laboratory results: PubChem BioAssay AID504761 (Drosophila RNAi Screening Center, 2011)
The deposit covers about 22,000 reagents; below is a random part of those that have a named target and a result. Over the whole deposit, 116 (0.52%) were called active. 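Calls depend on retest data that are not deposited; infection was ranked per plate without normalising between plates; the unit of the infection score is not given.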 Reagents against one gene are numbered here. A plus sign joins genes that one reagent is predicted to hit. Further read-outs or replicates are left out here. Not stated in the record: the amount of reagent, the time to read-out.

Purpose: 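Genome-wide fly cell screen for genes dengue virus requires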 (primary screen)
Cells: D.Mel-2 cells from Drosophila
Reagents: long dsRNA against Drosophila genes
Conditions: infection with dengue virus type 2; dose and infection time not stated
Measurement: 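Per well on two replicate plates, imaging gave the percent of cells positive for viral envelope protein, ranked by infection, and a nuclear count of cells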
Direction: infection score: higher = more virus-infected cells
Call rule: 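Low infection ranks in the two replicates (chance level up to 0.065) followed by a retest with a 1.5-fold or larger significant decrease, p below 0.05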
Calls: active = confirmed: knock-down lowers infection; inactive = not picked or not confirmed

| gene | reagent | infection score, replicate 1 | infection score, replicate 2 | outcome |
| --- | --- | --- | --- | --- |
| CG4372 | 1 | 9.72 | 8.09 | inactive |
| Prosalpha7 | 1 | 0.85 | 4.32 | inactive |
| Prosalpha7 | 2 | 5.12 | 7.27 | inactive |
| Jheh3 | 1 | 3.81 | 3.39 | inactive |
| Jheh3 | 2 | 14 | 19.3 | inactive |
| parvin | 1 | 3.31 | 6.58 | inactive |
| parvin | 2 | 22 | 12.5 | inactive |
| stan | 1 | 2.09 | 2.52 | inactive |
| stan | 2 | 13.4 | 9.16 | inactive |
| CG33108 | 1 | 3.82 | 15 | inactive |
| CG33108 | 2 | 2.41 | 3.74 | inactive |
| Ir94g | 1 | 10.7 | 13.4 | inactive |
| Ir94g | 2 | 4.43 | 8.15 | inactive |
| CG8613 | 1 | 1.46 | 6.99 | inactive |
| CG8613 | 2 | 13.6 | 9.83 | inactive |
| CG5664 | 1 | 8.03 | 5.67 | inactive |
| CG4983 | 1 | 14.5 | 10.1 | inactive |
| CG4983 | 2 | 0.64 | 3.93 | inactive |
| CG8545 | 1 | 3.82 | 5.1 | inactive |
| Dref | 1 | 4.01 | 6.45 | inactive |
| CG17824 (retired record) | 1 | 4 | 3.86 | inactive |
| Osi24 | 1 | 10.4 | 2 | inactive |
| Rpp25 | 1 | 8.11 | 4.48 | inactive |
| CG13046 | 1 | 0.43 | 3.86 | inactive |
| Tpl94D | 1 | 0.06 | 0.93 | inactive |
| CG33109 | 1 | 2.92 | 1.95 | inactive |
| CG17059 + Fsn | 1 | 1.16 | 1.96 | inactive |
| Cnx99A + Cnx14D | 1 | 4.32 | – | inactive |
| CG7650 | 1 | 0.84 | 1.35 | inactive |
| CG7650 | 2 | 5.53 | 2.4 | inactive |
| Rpt2 | 1 | 9.69 | 4.33 | inactive |
| Rpt2 | 2 | 1.61 | 1.7 | inactive |
| NT5E-2 | 1 | 6.93 | 14.8 | inactive |
| eIF2A | 1 | 2.14 | 5.2 | inactive |
| CG12744 | 1 | 3.14 | 6.37 | inactive |
| dmrt93B | 1 | 12 | 1.72 | inactive |
| dmrt93B | 2 | 4.9 | 2.69 | inactive |
| ath | 1 | 11.1 | 5.44 | inactive |
| Larp7 | 1 | 0.99 | 2.5 | inactive |
| Larp7 | 2 | 4.35 | 7.93 | inactive |
